{
  "source": "paper PMC7584437",
  "about": "(Structure (London, England : 1993), 2020)",
  "target": "SARS-CoV-2 3CL M^pro (Severe acute respiratory syndrome coronavirus 2, UniProt P0DTD1)",
  "experiment": "biochemical",
  "data": [
    {"compound": "CCCC[C@H](NC(=O)[C@@H]1[C@@H]2[C@H](CN1C(=O)[C@@H](NC(=O)NC1(CS(=O)(=O)C(C)(C)C)CCCCC1)C(C)(C)C)C2(C)C)C(=O)C(=O)NC1CC1", "note": "[narlaprevir]", "values": [
      {"measurement": "IC50", "result": 5.1, "unit": "µM"}
    ]}
  ]
}
